Results of unrelated studies side by side (data: NIAID ChemDB).

Shared fields: target-level tests; agent: HIV-1; target: Reverse transcriptase; read by: nucleotide incorporation / radiometric; read-out: IC50

ICn is the concentration giving n% inhibition. Conditions beyond the fields shown may differ between rows. a–b is a range or a potency band. An empty or dashed field is not shown.

structure,changes,setting,result
CCN1c2ncc(CCOc3ccc(CC(=O)O)c4ccccc34)cc2C(=O)Nc2c(C)cc(Cl)nc21,RT-K103N Y181C,-,0.1–1 µM
CC(C)(O)CCc1c(O[C@@H]2O[C@H](CO)[C@@H](O)[C@H](O)[C@H]2O)cc2c(c1O)C(=O)[C@H](O)[C@@H](c1ccc(O)c(O)c1)O2,-,-,>200 µg/mL
CCN1c2ncc(CCOc3cccc4c3COC(=O)N4)cc2-c2ncc(C)n2-c2cccnc21,RT-K103N Y181C,-,>0.1 µM
CC(C)(O/N=C(/C(=O)NCC=O)c1csc(N)n1)C(=O)O,-,-,>100 µg/mL
CCN1c2ncc(CCOc3ccc(CC(=O)O)c4ccccc34)cc2C(=O)Nc2c(C)ccnc21,RT-V106A,-,>1 µM
Nc1nc2c(ncn2[C@H]2CC[C@@H](COP(=O)(O)OP(=O)(O)OP(=O)(O)O)O2)c(=O)[nH]1,RT-V75I,-,0.071 µM
Cc1cc(S(N)(=O)=O)ccc1NC(=O)CSc1nnc(Br)n1-c1ccc2c3c(cccc13)CC2,-,-,<0.05 µM
CCN1c2ncc(CCOc3cccc4c3CS(=O)(=O)N4CC(=O)O)cc2-c2nccn2-c2c(C)ccnc21,-,-,<0.05 µM
Cc1cn([C@H]2C[C@H](O)[C@@H](COC(=O)CCCC(=O)O)O2)c(=O)[nH]c1=O,-,-,180 µg/mL
O=c1cc(-c2ccc(O)cc2)oc2c([C@@H]3O[C@H](CO)[C@@H](O)[C@H](O)[C@H]3O)c(O)cc(O)c12,-,-,>200 µg/mL
COC(=O)c1ccc(NC(=O)Cc2ccc(Oc3cc(C#N)cc(C#N)c3)c(Cl)c2)cc1C,-,-,100 µM
CCN1c2ncc(CCOc3ccc(C(=O)O)c4c3CCN(C(C)=O)C4)cc2C(=O)N(C)c2cccnc21,RT-V106A,-,>1 µM
CC(C)C[C@H](NC(=O)c1ccc(NC(=O)CSc2nnc(Br)n2-c2ccc(C3CC3)c3ccccc23)c(Cl)c1)C(=O)O,-,-,<0.05 µM
CCOC(=O)N1c2cccc(OCCc3cnc4c(c3)-c3nccn3-c3c(C)ccnc3N4CC)c2CS1(=O)=O,RT-K103N Y181C,-,<0.05 µM
CCN1c2ncc(CCOc3cccc4c3ccc[n+]4[O-])cc2C(=O)N(C)c2ccc(Cl)nc21,RT-K103N P225H,-,0.017 µM
O=c1[nH]c(=O)n([C@H]2C[C@H](O)[C@@H](COP(=O)(O)OP(=O)(O)OP(=O)(O)O)O2)cc1/C=C/c1ccccc1,-,-,1.8 µM
CCOC(=O)[C@H](Cc1ccc(O)cc1)NC(=O)c1ccc(NC(=O)CSc2nnc(Br)n2-c2ccc(C3CC3)c3ccccc23)c(Cl)c1,-,-,0.05–0.1 µM
Nc1ccn([C@H]2CC[C@@H](COP(=O)(O)OP(=O)(O)OP(=O)(O)O)O2)c(=O)n1,RT-A62V,-,0.21 µM
CCN1c2ncc(CCOc3ccc(-c4ccc(CC(=O)O)cc4)cc3C)cc2-c2nccn2-c2cccnc21,-,-,<0.05 µM
O=C(O)CCCCC(=O)OC[C@H]1O[C@@H](n2cc(-c3cccs3)c(=O)[nH]c2=O)C[C@@H]1O,-,-,60 µg/mL
Nc1cc(OC[C@H]2CC[C@@H](COP(=O)([O-])OP(=O)([O-])OP(=O)([O-])O)O2)nc(N)n1,-,Mg2+,>500 µM
Cc1ccc(-n2c(SCC(=O)Nc3ccc(S(=O)(=O)NCCN4CCOCC4)cc3Cl)nnc2C(F)F)c2c1CCCC2,RT-Y188L,-,>0.1 µM
CCN1c2ncc(CCOc3cccc4c3CS(=O)(=O)N4CC(=O)OC(C)(C)C)cc2-c2nccn2-c2c(C)ccnc21,-,-,<0.05 µM
Cc1ccc2c(C)cc(C)c(-n3c(SCC(=O)Nc4ccc(S(N)(=O)=O)cc4C)nnc3C(F)F)c2n1,RT-Y181C,-,>0.1 µM
COc1cc(CC(=O)Nc2ccc(S(N)(=O)=O)cc2)ccc1Oc1cc(Cl)cc(C#N)c1,-,-,10 µM
Cc1cc(S(N)(=O)=O)ccc1NC(=O)CSc1nnc(C(F)F)n1-c1ccc(C)c2c1CCCC2,RT-Y181C,-,<0.05 µM
O=c1[nH]c(=O)n([C@H]2CC[C@@H](COP(=O)(O)OP(=O)(O)OP(=O)(O)O)O2)cc1/C=C/c1ccccc1,-,-,0.8 µM
CCc1ccc(-n2c(SCC(=O)Nc3ccc(C(=O)O)cc3Cl)nnc2C(F)(F)F)c2ccccc12,RT-Y181C,-,<0.05 µM
Cc1cn([C@H]2C[C@H](O)[C@@H](COC(=O)CCCCCC(=O)O)O2)c(=O)[nH]c1=O,-,-,>200 µg/mL
NS(=O)(=O)c1ccc(NC(=O)CSc2nnc(Cl)n2-c2ccc(C3CC3)c3ccccc23)c(Cl)c1,RT-Y188L,-,>0.1 µM
O=C(O)CCCC(=O)OC[C@H]1O[C@@H](n2cc(-c3cccs3)c(=O)[nH]c2=O)C[C@@H]1O,-,-,33 µg/mL
NS(=O)(=O)c1ccc(NC(=O)CSc2nnc(Br)n2-c2ccc(C3CCC3)c3ccccc23)c(Cl)c1,RT-Y181C,-,<0.05 µM
CCN1c2ncc(CCOc3ccc(C(=O)O)c4c3CCN(C(=O)OC(C)(C)C)C4)cc2C(=O)N(C)c2cccnc21,RT-K103N Y181C,-,0.1–1 µM
O=C(CSc1nnc(Br)n1-c1c(Cl)cc(C2CCC2)c2ccccc12)Nc1ccc(C(=O)O)cc1Cl,-,-,<0.05 µM
CCCc1cc(=O)oc2c3c(c4c(c12)OC(C)(C)C=C4)O[C@H](C)C[C@@H]3O,RT-G138A,-,5.97 µM
Cc1cc(S(N)(=O)=O)ccc1NC(=O)CSc1nnc(Br)n1-c1c(Cl)cc(C2CCC2)c2ccccc12,RT-Y181C,-,<0.05 µM
CC(C)=CCc1c(O[C@@H]2O[C@H](CO)[C@@H](O)[C@H](O)[C@H]2O)cc2c(c1O)C(=O)[C@H](O)[C@@H](c1ccc(O)cc1)O2,-,-,>200 µg/mL
CC(C)c1ccc(-n2c(SCC(=O)Nc3ccc(S(N)(=O)=O)cc3Cl)nnc2C(F)F)c2ccccc12,RT-Y181C,-,<0.05 µM
O=C(O)CCCCCC(=O)OC[C@H]1O[C@@H](n2cc(-c3cccs3)c(=O)[nH]c2=O)C[C@@H]1O,-,-,>200 µg/mL
Cc1cc(C)c2ccccc2c1-n1c(CF)nnc1SCC(=O)Nc1ccc(S(N)(=O)=O)cc1Cl,RT-Y181C,-,<0.05 µM
N#Cc1ccc(NC(=O)Cc2ccc(Oc3cc(C#N)cc(C#N)c3)c(Cl)c2)cc1,-,-,10 µM
O=C(CSc1nnc(Br)n1-c1ccc(C2CC2)cc1Cl)Nc1ccc(S(=O)(=O)O)cc1Cl,-,-,<0.05 µM
N#Cc1cc(C#N)cc(Oc2ccc(CC(=O)Nc3ccc(S(=O)(=O)N4CCOCC4)cc3)cc2Cl)c1,-,-,100 µM